The values that follow come from patent publication US20090297520A1.

Positions count from the first letter of the chain named.

T1: human Kv1.1 channel (human), Q09470
T1 chain: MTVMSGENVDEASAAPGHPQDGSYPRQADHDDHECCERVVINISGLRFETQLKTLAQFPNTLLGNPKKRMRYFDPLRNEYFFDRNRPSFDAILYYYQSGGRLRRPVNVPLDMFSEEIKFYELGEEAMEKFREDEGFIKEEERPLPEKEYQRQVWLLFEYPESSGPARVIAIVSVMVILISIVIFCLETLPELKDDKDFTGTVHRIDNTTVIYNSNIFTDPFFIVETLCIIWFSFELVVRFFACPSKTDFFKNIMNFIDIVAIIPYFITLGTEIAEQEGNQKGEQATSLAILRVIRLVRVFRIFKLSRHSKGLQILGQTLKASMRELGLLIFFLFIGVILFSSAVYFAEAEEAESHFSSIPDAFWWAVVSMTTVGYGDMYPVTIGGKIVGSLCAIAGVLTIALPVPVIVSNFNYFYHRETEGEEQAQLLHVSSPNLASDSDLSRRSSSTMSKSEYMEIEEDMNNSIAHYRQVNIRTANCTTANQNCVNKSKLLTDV

B1: OSK1 analogue S11R (peptide)
peptide: GVIINVKCKIRRQCLEPCKKAGMRFGKCMNGKCHCTPK
modifications: not checked
B2: OSK1 Alanine analog G22A (peptide)
peptide: B1 peptide with R11S, G22A
modifications: not checked
B3: OSK1 Alanine analog N30A (peptide)
peptide: B1 peptide with R11S, N30A
modifications: not checked
B4: OSK1 Alanine analog K27A (peptide)
peptide: B1 peptide with R11S, K27A
modifications: not checked
B5: OSK1 analog Ala-3 (SEQ ID No: 1402) (peptide)
peptide: B1 peptide with I3A, R11S
modifications: not checked
B6: OSK1 analog Ala-25 (SEQ ID No: 1421) (peptide)
peptide: B1 peptide with R11S, F25A
modifications: not checked
B7: OSK1 Arginine analog K38R (peptide)
peptide: B1 peptide with R11S, K38R
modifications: not checked
B8: OSK1 analog Ala-19 (SEQ ID No: 1415) (peptide)
peptide: B1 peptide with R11S, K19A
modifications: not checked
B9: OSK1 analog Ala-2 (SEQ ID No: 1401) (peptide)
peptide: B1 peptide with V2A, R11S
modifications: not checked
B10: OSK1 analog Ala-17 (SEQ ID No: 1414) (peptide)
peptide: B1 peptide with R11S, P17A
modifications: not checked
B11: OSK1 analog Ala-22 (SEQ ID No: 1418) (peptide)
peptide: B1 peptide with R11S, G22A
modifications: not checked
B12: OSK1 analog Ala-20 (SEQ ID No: 1416) (peptide)
peptide: B1 peptide with R11S, K20A
modifications: not checked
B13: OSK1 Alanine analog I10A (peptide)
peptide: B1 peptide with I10A, R11S
modifications: not checked
B14: OSK1 analog Ala-27 (SEQ ID No: 1423) (peptide)
peptide: B1 peptide with R11S, K27A
modifications: not checked
B15: OSK1 Alanine analog S11A (peptide)
peptide: B1 peptide with R11A
modifications: not checked
B16: OSK1 analog Ala-15 (SEQ ID No: 1412) (peptide)
peptide: B1 peptide with R11S, L15A
modifications: not checked
B17: OSK1 Alanine analog G1A (peptide)
peptide: B1 peptide with G1A, R11S
modifications: not checked
B18: OSK1 analog Ala-1 (SEQ ID No: 1400) (peptide)
peptide: B1 peptide with G1A, R11S
modifications: not checked
B19: OSK1 Arginine analog A21R (peptide)
peptide: B1 peptide with R11S, A21R
modifications: not checked
B20: OSK1 analog Ala-4 (SEQ ID No: 1403) (peptide)
peptide: B1 peptide with I4A, R11S
modifications: not checked
B21: OSK1 analog Ala-9 (SEQ ID No: 1407) (peptide)
peptide: B1 peptide with K9A, R11S
modifications: not checked
B22: OSK1 Arginine analog G26R (peptide)
peptide: B1 peptide with R11S, G26R
modifications: not checked
B23: OSK1 Alanine analog R24A (peptide)
peptide: B1 peptide with R11S, R24A
modifications: not checked
B24: OSK1 analog Ala-12 (SEQ ID No: 1410) (peptide)
peptide: B1 peptide with R11S, R12A
modifications: not checked
B25: OSK1 Glutamic Acid analog R12E (peptide)
peptide: B1 peptide with R11S, R12E
modifications: not checked
B26: OSK1 analog Ala-34 (SEQ ID No: 1428) (peptide)
peptide: B1 peptide with R11S, H34A
modifications: not checked
B27: OSK1 analog Ala-10 (SEQ ID No: 1408) (peptide)
peptide: B1 peptide with I10A, R11S
modifications: not checked
B28: OSK1 analog Ala-6 (SEQ ID No: 1405) (peptide)
peptide: B1 peptide with V6A, R11S
modifications: not checked
B29: OSK1 analog Ala-13 (SEQ ID No: 1411) (peptide)
peptide: B1 peptide with R11S, Q13A
modifications: not checked
B30: OSK1 analog Ala-23 (SEQ ID No: 1419) (peptide)
peptide: B1 peptide with R11S, M23A
modifications: not checked
B31: OSK1 analog Ala-5 (SEQ ID No: 1404) (peptide)
peptide: B1 peptide with N5A, R11S
modifications: not checked
B32: OSK1 Glutamic Acid analog N5E (peptide)
peptide: B1 peptide with N5E, R11S
modifications: not checked
B33: OSK1 analog Ala-7 (SEQ ID No: 1406) (peptide)
peptide: B1 peptide with K7A, R11S
modifications: not checked
B34: OSK1 analog Ala-3O (SEQ ID No: 1425) (peptide)
peptide: B1 peptide with R11S, N30A
modifications: not checked
B35: OSK1 analog Ala-16 (SEQ ID No: 1413) (peptide)
peptide: B1 peptide with R11S, E16A
modifications: not checked
B36: OSK1 Glutamic Acid analog G26E (peptide)
peptide: B1 peptide with R11S, G26E
modifications: not checked
B37: OSK1 Arginine analog M29R (peptide)
peptide: B1 peptide with R11S, M29R
modifications: not checked
B38: OSK1 Arginine analog T36R (peptide)
peptide: B1 peptide with R11S, T36R
modifications: not checked
B39: OSK1 analog Ala-29 (SEQ ID No: 1424) (peptide)
peptide: B1 peptide with R11S, M29A
modifications: not checked
B40: OSK1 analog Pro-12, Lys-16, Asp-20, Ile-23, Ile-29, Ala-34 (SEQ ID No: 1393) (peptide)
peptide: GVIINVKCKISPQCLKPCKDAGIRFGKCINGKCACTPK
modifications: not checked

One assay addresses human Kv1.3 (human), P22001. As to the kind of experiment: cell-based or functional assay.
Consider B1, for which the Kv1.3 (IC50, pM), whole cell patch clamp ePhys came out at 40 pM.

The next assay concerns the target T1, human Kv1.1 channel (human), Q09470. As to the kind of experiment: cell-based or functional assay.
For the molecule B2, the Kv1.1 (IC50, pM) is over 3000 pM.

Consider B3, for which the Kv1.1 (IC50, pM) is over 3000 pM.

B4 showed a Kv1.1 (IC50, pM) of over 3000 pM.

Another assay addresses human Kv1.3 channel (human), P22001. Kind of assay: cell-based or functional assay.
The molecule B5 yielded an Analog IC50 divided by Ala-1 IC50, IFNg of 0.83 and an Analog IC50 divided by Ala-1 IC50, IL2 of 0.72.

As to B2, the Kv1.3 (IC50, pM) is over 3000 pM.

In turn, B6 gave an Analog IC50 divided by Ala-1 IC50, IFNg of 25.8 and an Analog IC50 divided by Ala-1 IC50, IL2 of 25.2.

As for B7, the WB/IFNg (IC50, pM) came to 40 pM.

On to B8, for which the Analog IC50 divided by Ala-1 IC50, IFNg was determined as 1.36 and the Analog IC50 divided by Ala-1 IC50, IL2 is 1.33.

B9 yielded an Analog IC50 divided by Ala-1 IC50, IFNg of 0.87 and an Analog IC50 divided by Ala-1 IC50, IL2 of 0.72.

Take B10: the Analog IC50 divided by Ala-1 IC50, IFNg came out at 1.45 and the Analog IC50 divided by Ala-1 IC50, IL2 is 1.42.

Regarding B11, the Analog IC50 divided by Ala-1 IC50, IFNg was 59.3 and the Analog IC50 divided by Ala-1 IC50, IL2 amounted to 58.1.

B12: the Analog IC50 divided by Ala-1 IC50, IFNg is 3.17 and the Analog IC50 divided by Ala-1 IC50, IL2 was 3.11.

B13 gave a WB/IL-2 (IC50, pM) of 50 pM.

For B14, the Analog IC50 divided by Ala-1 IC50, IFNg came out at 13.2 and the Analog IC50 divided by Ala-1 IC50, IL2 is 28.3.

In turn, B15 yielded a WB/IL-2 (IC50, pM) of 90 pM.

The molecule B16 showed an Analog IC50 divided by Ala-1 IC50, IFNg of 0.9 and an Analog IC50 divided by Ala-1 IC50, IL2 of 0.88.

As for B17, the Kv1.3 (IC50, pM) was 41.1 pM.

B18 had an Analog IC50 divided by Ala-1 IC50, IFNg of 1 and an Analog IC50 divided by Ala-1 IC50, IL2 of 1.

Consider B19, for which the WB/IL-2 (IC50, pM) worked out at 90 pM.

Regarding B20, the Analog IC50 divided by Ala-1 IC50, IFNg came out at 0.73 and the Analog IC50 divided by Ala-1 IC50, IL2 was found to be 0.91.

Consider B21, for which the Analog IC50 divided by Ala-1 IC50, IFNg is 0.6 and the Analog IC50 divided by Ala-1 IC50, IL2 is 0.65.

In turn, B22 had a WB/IFNg (IC50, pM) of 100000 pM.

Molecule B23 came in with a Kv1.3 (IC50, pM) of over 3000 pM.

As to B24, the Analog IC50 divided by Ala-1 IC50, IFNg is 1.3 and the Analog IC50 divided by Ala-1 IC50, IL2 was 1.01.

B25 registered a WB/IFNg (IC50, pM) of 2000 pM.

On to B26, for which the Analog IC50 divided by Ala-1 IC50, IFNg amounted to 0.48 and the Analog IC50 divided by Ala-1 IC50, IL2 was found to be 0.59.

As for B27, the Analog IC50 divided by Ala-1 IC50, IFNg is 0.25; the Analog IC50 divided by Ala-1 IC50, IL2 was found to be 0.41; the Average IC50 (nM) IL-2, thapsigargin induced, 50% human whole blood came to 0.05 nM.

Molecule B28 returned an Analog IC50 divided by Ala-1 IC50, IFNg of 0.67 and an Analog IC50 divided by Ala-1 IC50, IL2 of 0.6.

B29 showed an Analog IC50 divided by Ala-1 IC50, IFNg of 1.11 and an Analog IC50 divided by Ala-1 IC50, IL2 of 1.21.

In turn, B30 showed an Analog IC50 divided by Ala-1 IC50, IFNg of 2.3 and an Analog IC50 divided by Ala-1 IC50, IL2 of 2.25.

As for B31, the Analog IC50 divided by Ala-1 IC50, IFNg is 0.56 and the Analog IC50 divided by Ala-1 IC50, IL2 was found to be 0.56.

As for B32, the WB/IL-2 (IC50, pM) is 100 pM.

B33 came in with an Analog IC50 divided by Ala-1 IC50, IFNg of 0.49 and an Analog IC50 divided by Ala-1 IC50, IL2 of 0.55.

Consider B34, for which the Analog IC50 divided by Ala-1 IC50, IFNg came to 5.33 and the Analog IC50 divided by Ala-1 IC50, IL2 was 7.96.

For the molecule B35, the Analog IC50 divided by Ala-1 IC50, IFNg came to 0.84 and the Analog IC50 divided by Ala-1 IC50, IL2 stood at 0.83.

With B36, the WB/IFNg (IC50, pM) turned out to be 100000 pM and the WB/IL-2 (IC50, pM) amounted to 100000 pM.

The molecule B37 had a Kv1.3 (IC50, pM) of 200 pM.

For B38, the WB/IFNg (IC50, pM) came out at 10000 pM.

For B39, the Analog IC50 divided by Ala-1 IC50, IFNg worked out at 2.44 and the Analog IC50 divided by Ala-1 IC50, IL2 came to 3.66.

Molecule B40 had an Analog IC50 divided by Ala-1 IC50, IFNg of 4.29 and an Analog IC50 divided by Ala-1 IC50, IL2 of 4.21.
